Results of unrelated studies side by side (data: NIAID ChemDB).

Common to all: whole-cell or culture tests; agent: Rhinovirus; read by: cytopathic effect; read-out: EC50

Conditions beyond the fields shown may differ between rows.

structure,cells,strain or isolate,result
CS(=O)(=O)c1ccc(NCc2ccc(Cl)c(Cl)c2)nc1,HeLa,TYPE 1A,2.5 µg/mL
Cc1c(-c2ccccc2)n(-c2ccc(F)cc2)c2ccc(C(C)C)cc2c1=O,HELA-OHIO,32/363,0.077 µg/mL
COCc1cc(CCCOc2c(Cl)cc(-c3noc(C)n3)cc2Cl)on1,HeLa,Serotype 2,0.01 µg/mL
CCOc1ccc(-c2cc(N3CCCCC3)no2)c(O)c1,HeLa,Serotype 2,>347 µM
CSc1nsc(-c2ccc(OCCCCOc3ccc(C#N)cc3)cc2)c1C#N,HELA-OHIO,Serotype 85 (group B),>2 µM
CS(=O)(=O)c1ccc(NCCc2ccc(Cl)c(Cl)c2)nc1,HeLa,TYPE 64,<1.3 µg/mL
CSc1nsc(-c2ccccc2)c1C#N,HELA-OHIO,Serotype 15 (group B),>80 µM
N#Cc1cccnc1Oc1ccc(C(=O)c2ccccc2)cc1,HeLa,TYPE 2,>10 µg/mL
CS(=O)(=O)c1ccc(Cc2ccc(Cl)c(Cl)c2)nc1,HeLa,TYPE 8,>10 µg/mL
COc1ccc(-c2cc(N3CCCC3)no2)c(O)c1,HeLa,Serotype 14,>384 µM
CSc1nsc(-c2ccc(OCCCOc3ccccc3)cc2)c1C#N,HELA-OHIO,Serotype 72 (group A),>20 µM
Cc1c(-c2ccccc2)n(-c2cccc(F)c2)c2ccc(C(C)C)cc2c1=O,HELA-OHIO,TYPE 5,>1 µg/mL
CS(=O)(=O)c1ccc(Oc2ccc(C(=O)c3ccccc3)cc2)nc1,HeLa,TYPE 64,2.5 µg/mL
CSc1nsc(-c2ccc(OCCCCOc3ccccc3)cc2)c1C#N,HELA-OHIO,Serotype 45 (group A),>20 µM
CCOC(=O)c1ccc(OCCC2CCN(c3ccc(C)nn3)CC2)cc1,WI-38,Serotype 3,<0.1 µg/mL
CS(=O)(=O)c1ccc(Cc2ccc(F)cc2)nc1,HeLa,TYPE 64,>10 µg/mL
CSc1nsc(-c2ccc(OCCCc3ccccc3)cc2)c1C#N,HELA-OHIO,Serotype 45 (group A),>20 µM
CCOc1cc(CCCOc2c(C)cc(-c3noc(C)n3)cc2C)on1,HeLa,Serotype 1A,0.042 µg/mL
CSc1nsc(-c2ccc(OCc3ccccc3)cc2)c1C#N,HELA-OHIO,Serotype 29 (group B),20 µM
CCN(CC)c1noc(-c2ccc(O)cc2O)c1Cc1c(N(CC)CC)noc1-c1ccc(OC)cc1O,HeLa,Serotype 2,>3.5 µM
CCc1nc(-c2cc(C)c(OCCCc3cc(COC)no3)c(C)c2)no1,HeLa,Serotype 1A,0.077 µg/mL
CS(=O)(=O)c1ccc(Cc2ccc(S(C)(=O)=O)cn2)cc1,HeLa,TYPE 2,>10 µg/mL
C#CCOc1cc(OC)ccc1-c1cc(N(CC)CC)no1,HeLa,Serotype 51 (group B),>40 µM
CCOC(=O)c1ccc(OCCOc2ccc(-c3snc(SC)c3C#N)cc2)cc1,HELA-OHIO,Serotype 63 (group B),>2 µM
CCOc1cc(OC)ccc1-c1cc(N(CC)CC)no1,HeLa,Serotype 59 (group B),25.8 µM
CC(C)S(=O)(=O)c1ccc(Oc2ccc(C(=O)c3ccccc3)cc2)nc1,HeLa,TYPE 1A,>5 µg/mL
CSc1nsc(-c2ccc(OC(C)(C)C)cc2)c1C#N,HELA-OHIO,Serotype 2 (group B),5 µM
CCn1c2c(c(=O)c3cc(C(C)C)ccc31)Cc1ccccc1-2,HELA-OHIO,1A/E28,2.6 µg/mL
CSc1nsc(-c2ccc(O)cc2)c1C#N,HELA-OHIO,Serotype 86 (group A),4.4 µM
CSc1ccc(Cc2ccc(S(C)(=O)=O)cn2)cc1,HeLa,TYPE 2,5 µg/mL
COc1ccc(-c2cc(N3CCCCC3)no2)c(O)c1,HeLa,Serotype 2,>364 µM

For reference, 5 entries again:

CC(C)S(=O)(=O)c1ccc(Oc2ccc(C(=O)c3ccccc3)cc2)nc1 ; cells: HeLa ; strain or isolate: TYPE 1A ; result: >5 µg/mL
CSc1nsc(-c2ccccc2)c1C#N ; cells: HELA-OHIO ; strain or isolate: Serotype 15 (group B) ; result: >80 µM
CCOc1ccc(-c2cc(N3CCCCC3)no2)c(O)c1 ; cells: HeLa ; strain or isolate: Serotype 2 ; result: >347 µM
CCOc1cc(OC)ccc1-c1cc(N(CC)CC)no1 ; cells: HeLa ; strain or isolate: Serotype 59 (group B) ; result: 25.8 µM
CSc1nsc(-c2ccc(OC(C)(C)C)cc2)c1C#N ; cells: HELA-OHIO ; strain or isolate: Serotype 2 (group B) ; result: 5 µM

ECn is the concentration giving n% inhibition of infection, replication or growth.